Assay [1] concerns the target GPC-I53-50A (GPCysR4, Josiah strain, genetically fused to I53-50A.1NT1) (Lassa virus, Josiah strain) (UniProt P08669).
The target is the same in assay [2]. This is another data set of the same source.
Assay [3] deals with GPC-I53-dn5B (GPCysR4, Josiah strain, fused to the I53_dn5B scaffold) (Lassa virus, Josiah strain) (UniProt P08669).

Where two headings read alike, the source gives them in different places.

One may read the stoichiometry N as the number of molecules, sites or subunits per partner or assembly.

Regarding “GPC-I53-50A (GPCysR4, Josiah strain, genetically fused to I53-50A.1NT1) (from UniProt P08669 1-424)”, the stoichiometry N in assay [1] and in assay [2] was 3 throughout.

Consider “GPC-I53-dn5B (GPCysR4, Josiah strain, fused to the I53_dn5B scaffold) (from UniProt P08669 1-424)”, for which the stoichiometry N in assay [3] came out at 3.

(Values after publication PMC9794196, “Lassa virus glycoprotein nanoparticles elicit neutralizing antibody responses and protection” (2022).)
